Data published in US20150258059A1, “ANTIMICROBIAL AND RADIOPROTECTIVE COMPOUNDS” (BioDiem, Ltd, priority 2001, published 2015).

Key:
[1] = system: Corynebacterium paratuberculosis; assay: Anti-bacterial activity in vivo, infected mice
Fusarium graminearum = assay: Development of resistance, 12 weeks sub-inhibitory exposure

C/C(=C\c1ccc2c(c1)OCO2)[N+](=O)[O-] [Compound (1)]
therapeutic and prophylactic activity [1]: showed therapeutic and prophylactic activity
MIC Final (Fusarium graminearum; Table 20, M38-P, after 12 weeks continuous exposure): 4 µg/mL (≈ 19.3 µM)
MIC Initial (Fusarium graminearum; Table 20, M38-P, parent strain): 4 µg/mL (≈ 19.3 µM)
Standard MIC Initial (Fusarium graminearum; before exposure, MHB): 4 µg/mL
7-Day MIC Range (Fusarium graminearum; to Wk 5): 4-16 to Wk 5 μg/mL

Converted amounts (≈) assume the structure as drawn.
